Data set [1] relates to CC(=O)OP(=O)(O)O. Put plainly: purified protein. The note with it: ATP-forming direction, co-substrate ADP, 20 mM MgCl2, pH 7.5, 37 °C.
Data set [2] relates to Nc1ncnc2c1ncn2[C@@H]1O[C@H](COP(=O)(O)OP(=O)(O)O)[C@@H](O)[C@H]1O. Put plainly: purified protein. The settings on record: ATP-forming direction, co-substrate acetyl phosphate, 20 mM MgCl2, pH 7.5, 37 °C.

This is an account of results in article PMC11717252, “Biophysical and biochemical evidence for the role of acetate kinases (AckAs) in an acetogenic pathway in pathogenic spirochetes” (PLOS ONE, 2025).

A word on the Km: it is the substrate concentration at which the rate is half of its maximum. Broadly, the kcat is the maximal rate divided by the concentration of active sites. What is called kcat/Km is the turnover number divided by the Michaelis constant.

In the case of “TV0924 (TREVI0001_0924; rTV0924; TvAckA) (Treponema vincentii ATCC 35580; R241A)”, in data set [1], the Michaelis-Menten constant (Km) is 2380 ± 150 µM, the kcat came out at 9.54 s⁻¹ and the kcat/Km was determined as 3900 M⁻¹ s⁻¹. Further, in data set [2], the Km amounted to 440 ± 40 µM, the kcat is 8.52 s⁻¹ and the kcat/Km was 18700 M⁻¹ s⁻¹.
With “TV0924 (TREVI0001_0924; rTV0924; TvAckA) (Treponema vincentii ATCC 35580; H180A)”, in data set [1], the Km is 18600 ± 1400 µM, the turnover number (kcat) is 98 s⁻¹ and the kcat/Km was 5300 M⁻¹ s⁻¹.
Regarding “TV0924 (TREVI0001_0924; rTV0924; TvAckA) (Treponema vincentii ATCC 35580; N7A)”, in data set [1], the Km was determined as 125 ± 16 µM, the kcat is 11.2 s⁻¹ and the specificity constant (kcat/Km) is 88000 M⁻¹ s⁻¹. In data set [2], the Km was found to be 1100 ± 50 µM, the kcat was found to be 13.4 s⁻¹ and the specificity constant (kcat/Km) is 11900 M⁻¹ s⁻¹.
With “TV0924 (TREVI0001_0924; rTV0924; TvAckA) (Treponema vincentii ATCC 35580; E388A)”, in data set [1], the Km is 155 ± 12 µM, the kcat came out at 0.329 s⁻¹ and the specificity constant (kcat/Km) came to 2040 M⁻¹ s⁻¹. In data set [2], the Km was found to be 1700 ± 200 µM, the kcat was determined as 0.46 s⁻¹ and the kcat/Km was 260 M⁻¹ s⁻¹.
“TV0924 (TREVI0001_0924; rTV0924; TvAckA) (Treponema vincentii ATCC 35580; R91A)”: in data set [1], the Km is 4000 ± 1100 µM, the kcat came out at 3.2 s⁻¹ and the kcat/Km worked out at 730 M⁻¹ s⁻¹. For the same substance, in data set [2], the Km was found to be 490 ± 20 µM, the kcat turned out to be 2.8 s⁻¹ and the kcat/Km was determined as 5500 M⁻¹ s⁻¹.
